Usually inhibition stands for the change of the read-out against control, counted positive when it falls.

From PubChem BioAssay AID588549 (Broad Institute, 2011) come the findings set out here.

Structures are written as SMILES. The list shows a part of the results, in another mix than the full data. Activity calls are given as the source filed them. Rule as the data show it: active = inhibition above about 8.5% (passing the limit was not always enough); inconclusive = no clear call, values can overlap the other calls.

This assay concerns Mycobacterium tuberculosis FadD28 fatty-acid-AMP ligase. The experiment in a line: inhibitors of FadD28 bisubstrate probe binding, primary screen, biochemical, fluorescence polarization, single point (AID 588549). The note with it: at 12.5 µM, hits give high values. In general terms: Fluorescence polarisation rises when a labelled molecule tumbles more slowly, as on binding a larger partner.
On to `O=[N+]([O-])c1cc([N+](=O)[O-])c(O)c([N+](=O)[O-])c1.c1ccc(Oc2ccncc2)cc1`, for which the inhibition was inactive: 0.568%.

As to `CCOC(=O)c1ccc(NP(C)(=O)Oc2ccc(OC)cc2)cc1` (configuration not stated), the inhibition was inactive: -3.3%.

Take `CCOP(C)(=S)SCC(=O)NC(C)C(=O)O` (configuration not stated): the inhibition was inactive: -1.55%.

In the case of `CP(=O)(Nc1ccccn1)Oc1ccc(Cl)cc1` (configuration not stated), the inhibition is inactive: 0.518%.

Take `CP(=O)(Oc1ccccc1)OC(c1ccccc1)C(F)(F)F` (configuration not stated): the inhibition was inactive: -2.73%.

Take `CP(=O)(Nc1ccc(SC(F)(F)F)cc1)Oc1ccc(Cl)cc1` (configuration not stated): the inhibition is inactive: -7.43%.

For the molecule `Cc1ccc(Nc2c([N+](=O)[O-])cc([N+](=O)[O-])cc2[N+](=O)[O-])cc1`, the inhibition is inactive: 0.133%.

Take `Cc1cccc(C)c1OP(C)(=O)Nc1ccc(SC(F)(F)F)cc1` (configuration not stated): the inhibition is inactive: -0.623%.

With `Cc1cc(C)cc(OP(C)(=O)Nc2ccc(SC(F)(F)F)cc2)c1` (configuration not stated), the inhibition is inactive: 1.21%.

`CP(=O)(NC(=O)Nc1ccccc1)Oc1ccccc1` (configuration not stated): the inhibition is inactive: -1.48%.

For `CCc1ccc(OP(C)(=O)N2CCN(c3ccc([N+](=O)[O-])cc3)CC2)cc1` (configuration not stated), the inhibition is inactive: -2.27%.

Take `CP(=S)(Nn1cnnc1)Oc1ccccc1` (configuration not stated): the inhibition was inactive: 0.122%.

`CP(=O)(Nc1ccccc1Br)Oc1ccccc1` (configuration not stated): the inhibition was inactive: -2.62%.

With `COc1ccccc1OP(C)(=O)Nc1ccccc1` (configuration not stated), the inhibition is inactive: 0.261%.

On to `Cc1ccc(NP(C)(=O)Oc2ccccc2)c(C)c1` (configuration not stated), for which the inhibition is inactive: -1.69%.

In the case of `COc1ccccc1OP(C)(=O)Nc1ccc(C)cc1` (configuration not stated), the inhibition was inactive: -0.198%.

Consider `CCOC(=O)c1ccc(NP(C)(=O)Oc2ccccc2)cc1` (configuration not stated), for which the inhibition was inactive: -1.82%.

As for `Cc1cc(C)cc(OP(C)(N)=O)c1` (configuration not stated), the inhibition is inactive: -0.528%.

As for `COc1ccc(OP(C)(=O)Nc2cccc(F)c2)cc1` (configuration not stated), the inhibition is inactive: -0.88%.

`COc1ccccc1OP(C)(=O)Nc1cc(Cl)ccc1C` (configuration not stated): the inhibition is inactive: -0.952%.

As to `O=[N+]([O-])c1cc([N+](=O)[O-])c(Nc2cccnc2)c([N+](=O)[O-])c1`, the inhibition is inactive: 0.636%.

Regarding `O=[N+]([O-])c1ccc2c(c1)C=Nc1ccccc1O2`, the inhibition is inactive: -0.141%.

For `Cc1cccc(C)c1OP(C)(N)=O` (configuration not stated), the inhibition is inactive: -0.976%.

Turning to `CC(C)(C)c1ccc(OP(C)(=O)Nc2ccc(SC(F)(F)F)cc2)cc1` (configuration not stated), the inhibition is inactive: -0.462%.

Take `CCN(CC)CCCOC(=O)C(O)(c1ccccc1)c1ccccc1`: the inhibition was inactive: 0.929%.

For the molecule `Cc1ccc(C)c(NP(C)(=O)Oc2ccccc2)c1` (configuration not stated), the inhibition is inactive: -1.04%.

With `Cc1cc(C)cc(OP(C)(=O)Nc2ccccn2)c1` (configuration not stated), the inhibition is inactive: 0.241%.

For the molecule `CP(=O)(Nc1cccc(Br)c1)Oc1ccccc1` (configuration not stated), the inhibition was inactive: -3.97%.

For the molecule `COc1ccccc1OP(C)(=O)Nc1cccc(Br)c1` (configuration not stated), the inhibition was inactive: -3.24%.

`CCOC(=O)c1ccc(NP(C)(=O)Oc2cc(C)cc(C)c2)cc1` (configuration not stated): the inhibition was inactive: -1.83%.

With `Cc1cc(C)cc(OP(C)(=O)Nc2ccc(C)cc2C)c1` (configuration not stated), the inhibition was inactive: -3.38%.

For the molecule `CC1=NCCc2c1[nH]c1ccccc21.O=[N+]([O-])c1cc([N+](=O)[O-])c(O)c([N+](=O)[O-])c1`, the inhibition was inactive: -2.44%.

With `O=C(O)c1cccc(Nc2c([N+](=O)[O-])cc([N+](=O)[O-])cc2[N+](=O)[O-])c1`, the inhibition is inactive: 0.0925%.

As for `CN1CCCCC1COC(=O)C1(O)c2ccccc2CCc2ccccc21` (configuration not stated), the inhibition is inactive: -1.7%.

Regarding `COc1ccccc1OP(C)(=O)Nc1c(C)cccc1C` (configuration not stated), the inhibition was inactive: -0.541%.

For the molecule `CCCOc1ccc(NP(C)(=O)Oc2ccc(Cl)cc2)cc1` (configuration not stated), the inhibition is inactive: 0.418%.

Regarding `CP(=O)(Nc1ccc(SC(F)(F)F)cc1)Oc1ccccc1` (configuration not stated), the inhibition is inactive: -0.893%.

For the molecule `CCOC(=O)C(CC)C1=NC(C)(C)Cc2ccccc21.O=[N+]([O-])c1cc([N+](=O)[O-])c(O)c([N+](=O)[O-])c1` (configuration not stated), the inhibition is inactive: 0.222%.

Regarding `CC1=C2N=C(C=C3N=C(C(C)=C4[N-][C@@](C)([C@@H]5N=C1[C@](C)(CCC(=O)NC[C@@H](C)OP(=O)([O-])O[C@H]1[C@@H](O)[C@@H](n6cnc7cc(C)c(C)cc76)O[C@@H]1CO)[C@H]5CC(N)=O)[C@@](C)(CC(N)=O)[C@@H]4CCC(N)=O)[C@@](C)(CC(N)=O)[C@@H]3CCC(N)=O)C(C)(C)[C@@H]2CCC(N)=O.[C-]#N.[Co+3]`, the inhibition is inactive: -2.82%.

Regarding `O=[N+]([O-])c1cc([N+](=O)[O-])c(Nc2nnnn2CCO)c([N+](=O)[O-])c1`, the inhibition was inactive: -2.78%.

Take `O=[N+]([O-])c1cc([N+](=O)[O-])c(-c2cnn(-c3ccccc3)c2)c([N+](=O)[O-])c1`: the inhibition was inactive: -16%.

On to `Cc1nc2ccc3ccccc3c2s1.O=[N+]([O-])c1cc([N+](=O)[O-])c(O)c([N+](=O)[O-])c1`, for which the inhibition was inactive: -1.22%.

With `O=[N+]([O-])c1cc([N+](=O)[O-])c(-n2nnc3ccccc32)c([N+](=O)[O-])c1`, the inhibition is inactive: -1.46%.

For `CN(Cc1cccnc1)C(=O)COc1ccc(Cl)c(Cl)c1.O=[N+]([O-])c1cc([N+](=O)[O-])c(O)c([N+](=O)[O-])c1`, the inhibition is inactive: -1.26%.

Regarding `CP(=O)(Nc1ccc2c(c1)OCCO2)Oc1ccccc1` (configuration not stated), the inhibition was inactive: -3.13%.

Regarding `Cc1ccccc1NP(C)(=O)Nc1ccccc1C`, the inhibition was inactive: -2.81%.

With `CP(=O)(Nc1ccc(SC(F)(F)F)cc1)Oc1ccc(F)cc1` (configuration not stated), the inhibition is inactive: -3.45%.

`CCOP(C)(=S)SCC(=O)NC(C)(CC)C(=O)O` (configuration not stated): the inhibition was inactive: 1.85%.

For the molecule `O=[N+]([O-])c1ccc(OP2(=O)COCCO2)cc1` (configuration not stated), the inhibition is inactive: 0.2%.

Regarding `Cc1cc(-c2cccc3ccccc23)c(C)cn1.O=[N+]([O-])c1cc([N+](=O)[O-])c(O)c([N+](=O)[O-])c1`, the inhibition was inactive: -3.33%.

As for `O=[N+]([O-])c1cc([N+](=O)[O-])c(NCC2CCS(=O)(=O)C2)c([N+](=O)[O-])c1` (configuration not stated), the inhibition was inactive: -2.66%.

With `Cc1c(C(c2ccc3c(c2)OCO3)c2c(C)n(C)n(-c3ccccc3)c2=O)c(=O)n(-c2ccccc2)n1C.O=[N+]([O-])c1cc([N+](=O)[O-])c(O)c([N+](=O)[O-])c1`, the inhibition is inactive: 0.98%.
